Results of unrelated studies side by side (data: NIAID ChemDB).

Shared fields: whole-cell or culture tests; organism: Candida albicans; measure: MIC100

A number after MIC or MFC names an inhibition level or a share of isolates. Lines come from different laboratories, so protocols vary.

smiles | strain | value
COc1ccc(-c2n[nH]c(COc3ncnc4ccccc34)n2)cc1 | MTCC 227 | 12.5 µg/mL
CC(=O)Nc1ccc(OCC(=O)N2N=C(c3nc4ccccc4[nH]3)CC2c2ccc(Cl)cc2)cc1 | MTCC 227 | 100 µg/mL
Cc1ccc(-c2n[nH]c(COc3nc(C(F)(F)F)nc4ccccc34)n2)cc1 | MTCC 227 | 12.5 µg/mL
CC(=O)Nc1ccc(OCC(=O)N2N=C(c3nc4ccccc4[nH]3)CC2c2cccc(F)c2)cc1 | MTCC 227 | 250 µg/mL
Cc1ccc(-c2nc3ccccc3c(=O)n2-c2ccc(C(=O)NN3C(=O)/C(=C/c4c(Cl)cccc4Cl)SC3c3ccc(F)cc3)cc2)cc1 | MTCC 227 | 500 µg/mL
COc1ccc(CN2CCN(c3nc4ccc5c(ccc(=O)n5C)c4s3)CC2)c(OC)c1OC | MTCC 183 | 25 µg/mL
CC(=O)Nc1ccc(OCC(=O)N2N=C(c3nc4ccccc4[nH]3)CC2c2ccccc2O)cc1 | MTCC 227 | 500 µg/mL
Clc1ccc(-c2n[nH]c(COc3ncnc4ccccc34)n2)cc1 | MTCC 227 | 25 µg/mL
CC(=O)Nc1ccc(OCC(=O)N2N=C(c3nc4ccccc4[nH]3)CC2c2cccc(C)c2)cc1 | MTCC 227 | 1000 µg/mL
COc1ccc(/C=C2\SC(c3ccc(F)cc3)N(NC(=O)c3ccc(-n4c(-c5ccc(C)cc5)nc5ccccc5c4=O)cc3)C2=O)cc1 | MTCC 227 | 1000 µg/mL
CC(=O)Nc1ccc(OCC(=O)N2N=C(c3nc4ccccc4[nH]3)CC2c2ccccc2)cc1 | MTT 227 | 500 µg/mL
Cc1ccc(-c2nc3ccccc3c(=O)n2-c2ccc(CONN)cc2)cc1 | MTCC 227 | 500 µg/mL
CC(=O)Nc1ccc(OCC(=O)N2N=C(c3nc4ccccc4[nH]3)CC2c2cccc(Cl)c2)cc1 | MTCC 227 | 250 µg/mL
Cn1c(=O)ccc2c3sc(N4CCN(Cc5ccccc5)CC4)nc3ccc21 | MTCC 183 | 250 µg/mL
Cc1nc(OCc2nc(-c3ccc(F)cc3)n[nH]2)c2ccccc2n1 | MTCC 277 | 6.25 µg/mL
Cc1ccc(-c2nc3ccccc3c(=O)n2-c2ccc(C(=O)NN3C(=O)/C(=C/c4ccccc4[N+](=O)[O-])SC3c3ccc(F)cc3)cc2)cc1 | MTCC 227 | 100 µg/mL
COc1cc(-c2n[nH]c(COc3nc(C)nc4ccccc34)n2)cc(OC)c1OC | MTCC 227 | 6.25 µg/mL
COC1=CC(=O)C[C@@H](C)[C@]12Oc1c(Cl)c(OC)cc(OC)c1C2=O | MTCC 227 | 1000 µg/mL
Cn1c(=O)ccc2c3sc(N4CCN(c5ccccc5Cl)CC4)nc3ccc21 | MTCC 183 | 250 µg/mL
FC(F)(F)c1nc(OCc2nc(-c3ccco3)n[nH]2)c2ccccc2n1 | MTCC 227 | 6.25 µg/mL
Cn1c(=O)ccc2c3sc(N4CCN(c5ccccc5)CC4)nc3ccc21 | MTCC 183 | 500 µg/mL
Fc1ccc(-c2n[nH]c(COc3nc(C(F)(F)F)nc4ccccc34)n2)cc1 | MTCC 227 | 6.25 µg/mL

2 of the rows above, restated:

smiles,strain,value
Fc1ccc(-c2n[nH]c(COc3nc(C(F)(F)F)nc4ccccc34)n2)cc1,MTCC 227,6.25 µg/mL
COc1ccc(/C=C2\SC(c3ccc(F)cc3)N(NC(=O)c3ccc(-n4c(-c5ccc(C)cc5)nc5ccccc5c4=O)cc3)C2=O)cc1,MTCC 227,1000 µg/mL